{"sequences": {"note": "Chains of the proteins cited; added tags and fusions are not shown. Residues count along the entry.", "UniProt A0A1D8PKB4, 37-345 limits assumed": "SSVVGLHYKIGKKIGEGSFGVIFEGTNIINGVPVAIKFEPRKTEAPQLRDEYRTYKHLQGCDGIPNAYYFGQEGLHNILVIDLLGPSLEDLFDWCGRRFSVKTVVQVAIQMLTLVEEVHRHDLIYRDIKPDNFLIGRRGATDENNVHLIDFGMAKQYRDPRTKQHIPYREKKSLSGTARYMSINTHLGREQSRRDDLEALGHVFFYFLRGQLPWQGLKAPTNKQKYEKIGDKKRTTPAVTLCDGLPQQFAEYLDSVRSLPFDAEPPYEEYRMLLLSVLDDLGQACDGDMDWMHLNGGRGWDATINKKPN"}, "source": "patent US20260199483A1", "about": "(Bright Angel Therapeutics Inc., priority 2022, published 2026)", "molecular_target": "purified recombinant Yck2 (Candida albicans, UniProt A0A1D8PKB4)", "assay": "HotSpot kinase assay", "assay_type": "biochemical, C. albicans", "conditions": "read-out: IC50 (IC50-nM); purified recombinant Yck2, 1 uM ATP, one hour incubation with inhibitor, 33P-ATP", "protocol": "IC50s were determined using the in vitro HotSpot kinase assay (purified enzymes, ^33P-ATP, an appropriate substrate and 1 μM ATP). For enzyme inhibition assays, compounds were tested in range of ten concentrations from 10 uM to 0.0005 uM using purified recombinant Yck2. Reaction conditions were 1 uM ATP, one hour incubation with inhibitor, and kinase activity detected using 33-ATP phosphorylation of an appropriately selected peptide substrate.\nYck2 residues 37-345 were PCR amplified from C. albicans genomic DNA and subcloned into the vector pMCSG53, which codes for a N-terminal His6 tag, TEV protease site, followed by the Yck2 protein. E. coli BL21(DE3)-Gold competent cells were transformed with this plasmid and the Yck2 protein was purified using methodology previously described (Stogios et al., ACS Chem. Biol. 13, 1322-1332 (2018))."}
{"smiles": "Cn1cc(-c2ccnc3c2C(=O)N(CCC2CCN(CC(O)(Cn4cncn4)c4ccc(F)cc4F)CC2)C3)c(-c2ccc(F)cc2)n1", "note": "(stereo not shown)", "values": [{"measurement": "IC50", "value": 4.15, "unit": "nM"}]}
